Laboratory results as given in PubChem BioAssay AID1085 (Emory University Molecular Libraries Screening Center, 2008).
“And” between values parts separate entries of the source, which are not always exact repeats. Identical values can stand only once. The entries are a selection whose mix differs from that of the whole data set. The source made the active and inactive calls. Cut-off read from the data, not from the text of the source: active = inhibition above about 50%; inactive = the rest.

Protein sequences, listed by entry. Tags and fused reporters are not part of them. Lines headed by an entry give the natural chain unless they say otherwise; changes in a name come on top.
UniProt Q1HVG2: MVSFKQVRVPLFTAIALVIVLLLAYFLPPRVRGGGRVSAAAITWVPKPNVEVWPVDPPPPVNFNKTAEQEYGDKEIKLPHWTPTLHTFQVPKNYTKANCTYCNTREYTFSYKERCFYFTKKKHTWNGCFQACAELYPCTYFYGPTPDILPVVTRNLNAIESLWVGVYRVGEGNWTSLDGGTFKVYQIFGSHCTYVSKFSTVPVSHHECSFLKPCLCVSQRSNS

What follows are compounds tested against Glycoprotein 42 (Epstein-Barr virus (strain AG876)) (UniProt Q1HVG2) (assay: Epstein-Barr virus gp42 inhibitors, primary screen, biochemical, uHTS, fluorescence polarization (AID 1085)). Details: Fluorescence polarization binding assay, mP read-out; stronger effect = higher value; tested at 21.74 µM.

Row | Structure (SMILES) | inhibition
1 | O=C(/C=C/c1ccccc1)OC1CN2CCC1CC2 (stereo not drawn) | inactive: -17.2%
2 | CN(C)C1(CNC(=O)c2ccc(S(C)(=O)=O)cc2)CCCCC1 | inactive: 30.7%
3 | Cc1nn(-c2ccccc2)c2c1P(=O)(N1CCOCC1)N(C)C(c1ccccc1)=N2 (stereo not drawn) | inactive: 13.1%
4 | CC1CCC(C(C)C)C(OP(=O)(Nc2ccccn2)c2ccccc2)C1 (stereo not drawn) | inactive: -17%
5 | Cc1ccc(OCC(=O)OC2CN3CCC2CC3)cc1 (stereo not drawn) | inactive: -7.82%
6 | O=[As](O)(c1cccs1)c1cccs1 | inactive: 3.28%
7 | O=P1(Nc2ccc(Br)cn2)COc2ccccc2OC1 | inactive: -28.7%
8 | Nc1cccc([As](=O)(O)c2ccccc2)c1 | inactive: -14.9%
9 | O=P1(Nc2ncccn2)COc2ccccc2OC1 | inactive: -18.5%
10 | Clc1n[nH]nc1-c1nn[nH][15n]1 | inactive: -3.74%
11 | CC(C)(C)C(=O)NC(Sc1ncccn1)C(Cl)(Cl)Cl (stereo not drawn) | inactive: -2.98%
12 | CCOP(=O)(Nc1ccc(C)cn1)OCC | inactive: -16.2%
13 | O=P1(Nc2ccccn2)COc2ccccc2OC1 | inactive: 9.78%
14 | O=[As](O)(c1ccccc1Br)c1ccccc1Br | inactive: -1.57%
15 | CC(C)/C=N\N=C(\N)N[N+](=O)[O-] | inactive: 1.11%
16 | CN(C(=O)Cc1ccc(Cl)c(Cl)c1)[C@@H]1CCCC[C@H]1N1CCCC1 | inactive: -15.8%
17 | Cc1cccc(OCC(=O)OC2CN3CCC2CC3)c1 (stereo not drawn) | inactive: -20.3%
18 | O=[As](O)(c1cccc(O)c1)c1cccc(O)c1 | inactive: 0.88%
19 | O=[As](O)(O)c1cccnc1 | inactive: -3.62%
20 | COc1cc(C(=O)NCC2(N3CCOCC3)CCCCC2)cc(Cl)c1OC(C)C | inactive: -9.88%
21 | O=C(OC1CN2CCC1CC2)c1ccc(Cl)cc1 (stereo not drawn) | inactive: -7.33%
22 | COc1cc(C2NCCC3(OCCO3)C2(C)C)cc(OC)c1OC (stereo not drawn) | inactive: -21.2%
23 | CCOP(=O)(Nc1cccc2ccccc12)OCC | inactive: 6.57%
24 | CCCOP(=S)(Nc1nc(N)cc(=O)[nH]1)OCCC | inactive: -5.47%
25 | Cc1ccc(NCCc2c([N+](=O)[O-])cc([N+](=O)[O-])cc2[N+](=O)[O-])cc1 | inactive: -4.07%
26 | Nc1cccc2c([As](=O)(O)O)cccc12 | inactive: 19.3%

Row | Structure (SMILES) | inhibition
27 | Nc1ccccc1[As](=O)(O)c1ccccc1 | inactive: -10.2%
28 | O=C(O)COc1ccc([As](=O)(O)O)cc1[N+](=O)[O-] | inactive: -6.41%
29 | CS(=O)(=O)c1cc([N+](=O)[O-])c2no[n+]([O-])c2c1 | inactive: -44.9%
30 | CCOP1(=S)c2c(C)nn(CCC#N)c2N=C(c2ccccc2F)N1C (stereo not drawn) | inactive: -5.44%
31 | O=P(Nc1nccs1)(Oc1ccccc1)Oc1ccccc1 | inactive: -5.42%
32 | O=P(Nc1nccs1)(c1ccccc1)c1nc2ccccc2s1 (stereo not drawn) | inactive: -15.7%
33 | O=[N+]([O-])c1ccc2c(c1)nnn2O | inactive: 0.79%
34 | CN(C(=O)Cc1ccccc1)[C@@H]1CC[C@]2(CCCO2)C[C@H]1N1CCCC1 | inactive: -11.8%
35 | CCOP1(=S)c2c(C)nn(CCC#N)c2N=C(c2ccc(F)cc2)N1C (stereo not drawn) | inactive: -6.82%
36 | NC(=O)Nc1ccc([As](=O)(O)O)cc1 | inactive: -10.4%
37 | Cc1ccc2nc3c(c(C)c2c1)CC(C(Cl)Cl)S3 (stereo not drawn) | inactive: 2.78%
38 | Cc1ccc(OP(=O)(Nc2ccc([N+](=O)[O-])cn2)Oc2ccc(C)cc2)cc1 | inactive: -1.4%
39 | C[As](=O)(O)c1cccc(C(=O)O)c1 | inactive: -17.6%
40 | O=[As](O)(c1ccc(O)cc1)c1ccccc1O | inactive: -9.23%
41 | CC(C)NC(=O)NP(=O)(Oc1ccccc1)Oc1ccccc1 | inactive: -2.7%
42 | CCN(CC)C(=S)SC(NC=O)C(Cl)(Cl)Cl (stereo not drawn) | inactive: -14.9%
43 | O=[N+]([O-])c1cc([N+](=O)[O-])c(-c2ccn[nH]2)s1 | inactive: -10.6%
44 | CC(C)c1ccc(OP(=O)(Nc2ccccn2)Oc2ccccc2F)cc1 (stereo not drawn) | inactive: 1.8%
45 | ClCCSc1nnc(-c2cccnc2)o1 | inactive: -8.86%
46 | COc1ccc2nc(NP(=O)(c3ccccc3)c3ccccc3)sc2c1 | inactive: -7.3%
47 | COc1cc(I)ccc1[As](=O)(O)O | inactive: -7.91%
48 | O=C(OC1CN2CCC1CC2)C12CC3CC(CC(C3)C1)C2 (stereo not drawn) | inactive: -15.4%
49 | Cc1cc(=O)[nH]c(N[N+](=O)[O-])n1 | inactive: -5.85%
50 | Cc1c2c(nc3ccccc13)SC(C(Cl)Cl)C2 (stereo not drawn) | inactive: -6.08%
51 | COc1ccc(N/C(=N/P(=O)(N2CCOCC2)N2CCOCC2)N2CCOCC2)cc1 | inactive: -14.6%
52 | O=C(COc1ccccc1)OC1CN2CCC1CC2 (stereo not drawn) | inactive: -3.19%

Row | Structure (SMILES) | inhibition
53 | COP1(=S)c2c(C)nn(CCC#N)c2N=C(c2ccc(F)cc2)N1C (stereo not drawn) | inactive: -16.4%
54 | CCC(C)N(CC(C)C)C(=S)SC(NC(C)=O)C(Cl)(Cl)Cl (stereo not drawn) | inactive: -22.1%
55 | CCOC(=O)c1ccc(NC(=O)C(C)(CCl)SC)cc1 (stereo not drawn) | inactive: -19.6%
56 | Cc1cc(SC(NC(=O)c2ccccc2)C(Cl)(Cl)Cl)nc(C(C)C)n1 (stereo not drawn) | inactive: 3.66%
57 | CCOC(=O)Nc1ccc([As](=O)(O)O)c(O)c1 | inactive: -5.48%
58 | O=[N+]([O-])c1ccc(Nc2ccc(Oc3ccc([N+](=O)[O-])cc3[N+](=O)[O-])cc2)c([N+](=O)[O-])c1 | inactive: -9.48%
59 | O=P(Nc1ccccn1)(c1cccc2ccccc12)c1cccc2ccccc12 | inactive: -1.67%
60 | Cc1cc(SC(NC=O)C(Cl)(Cl)Cl)ncn1 (stereo not drawn) | inactive: -1.89%
61 | CCOC(=O)Nc1cccc([As](=O)(O)O)c1 | inactive: -0.8%
62 | O=C(Nc1cc([As](=O)(O)O)ccc1O)c1ccccc1 | inactive: 0.04%
63 | O=[N+]([O-])c1cccc(NC2=NCC(CBr)S2)c1 (stereo not drawn) | inactive: -3.55%
64 | O=C(O)CNc1ccc([As](=O)(O)O)cc1 | inactive: -2.05%
65 | CC(C)(C)C(=O)NC(Sc1ccncn1)C(Cl)(Cl)Cl (stereo not drawn) | inactive: -6.84%
66 | O=[N+]([O-])c1ncn(CCn2ncnc2[N+](=O)[O-])n1 | inactive: -6.96%
67 | O=[N+]([O-])c1cccc2n[nH]nc12 | inactive: -4.45%
68 | CC(=O)N1C2C3N(C(C)=O)C1C1N(C(C)=O)C(C(N1C(C)=O)N3C(C)=O)N2C(C)=O | inactive: -12.1%
69 | Cc1ccc(NP(=O)(Oc2ccccc2)Oc2ccccc2)nc1 | inactive: -9.3%
70 | CCc1nc2c(n1)c1c(non1O)c1c2no[n+]1[O-] | inactive: -24.2%
71 | O=[N+]([O-])c1cc([N+](=O)[O-])c(CCNc2ccccc2)c([N+](=O)[O-])c1 | inactive: 0.25%
72 | COc1ccc(C2=NCC(CBr)S2)cc1 (stereo not drawn) | inactive: -25.4%
73 | CC(C)=N/N=C(\N)N[N+](=O)[O-] | inactive: -16.8%
74 | CN(C)C(=O)OCCc1n(C)cc[n+]1C | inactive: 6.39%
75 | CC1CCN(C(=O)Oc2c(Cl)cc(Cl)c3cccnc23)CC1 | inactive: -11.1%
76 | Nc1ccc([As](=O)(O)c2ccc(N)cc2)cc1 | inactive: -19.9%
77 | C[N+]1=C2C=CC=CC=C2SC12C([N+](=O)[O-])=CC([N+](=O)[O-])=C[C-]2[N+](=O)[O-] (stereo not drawn) | inactive: -31.8%
78 | CCN(/C(=N/P(=O)(N1CCOCC1)N1CCOCC1)N1CCOCC1)c1ccc(OC)cc1 | inactive: 3.33%

Row | Structure (SMILES) | inhibition
79 | COc1ccccc1OP(=O)(Nc1ccc(C)cn1)Oc1ccccc1OC | inactive: -20.4%
80 | Cc1ccc(OP(=O)(Nc2nccs2)Oc2ccc(C)cc2)cc1 | inactive: -9.58%
81 | CN1CCCC(OC(=O)C(c2ccccc2)c2ccccc2)C1 (stereo not drawn) | inactive: -1.39%
82 | Clc1ccc(Cl)c(NC2=NCC(CBr)S2)c1 (stereo not drawn) | inactive: -28.2%
83 | NC(=O)c1cc([N+](=O)[O-])cc([N+](=O)[O-])c1N | inactive: 3.13%
84 | Cc1ccc(N/C(=N/P(=O)(N2CCOCC2)N2CCOCC2)N2CCOCC2)cc1 | inactive: -12%
85 | Nc1cc(N)c2nonc2c1[N+](=O)[O-] | inactive: -22.3%
86 | CC(C)CC(=O)NC(Sc1ccc(Cl)cc1)C(Cl)(Cl)Cl (stereo not drawn) | inactive: -10%
87 | Oc1ccccc1CNc1ccccn1 | inactive: -19.2%
88 | O=C(NC(Sc1ccncn1)C(Cl)(Cl)Cl)c1ccccc1 (stereo not drawn) | inactive: -6.47%
89 | Cc1c2non([O-])c-2c(C)[n+](=O)[n+]1[O-] | inactive: -18.8%
90 | Cc1cc(SC(NC(=O)c2ccc(F)cc2)C(Cl)(Cl)Cl)ncn1 (stereo not drawn) | inactive: -16.6%
91 | CCOP(=O)(Nc1ccccc1)OCC | inactive: -16.6% and inactive: -11.8%
92 | Cc1ccc(NP(=O)(Oc2ccccc2F)Oc2ccccc2F)nc1 | inactive: 3.77%
93 | CC(=O)Nc1ccc([As](=O)(O)O)cc1 | inactive: -6.64%
94 | O=C(O)c1ccccc1[As](=O)(O)O | inactive: -11.7%
95 | O=P(Nc1nc2ccc(Cl)cc2s1)(c1ccccc1)c1ccccc1 | inactive: -2.63%
96 | CCN(N=Nc1nonc1N)c1nonc1N | inactive: -6.09%
97 | Nc1cccc2ccc([As](=O)(O)O)cc12 | inactive: 0.97%
98 | CCNC(=S)/N=C(\N)N[N+](=O)[O-] | inactive: 1.65%
99 | O=C(NC1CCS(=O)(=O)C1)NP(=S)(Oc1ccccc1)Oc1ccccc1 (stereo not drawn) | inactive: 7.98%
100 | c1ccc(-c2nn[nH]n2)c(-c2nn[nH]n2)c1 | inactive: -7.16%
101 | Cc1ccc(NP(=O)(Oc2cccc(C)c2)Oc2cccc(C)c2)nc1 | inactive: -23.2%
102 | CCOC(=O)NC(Sc1ccccc1)C(Cl)(Cl)Cl (stereo not drawn) | inactive: 4.38%
103 | Cc1ccccc1OP(=O)(Nc1ccccn1)Oc1ccccc1C | inactive: -15.2%
